A mixed list of measured activities; the numbers were collected in NIAID ChemDB.

All rows: toxicity to cultured cells; cells: DAUDI; read-out: CC50

CCn is the concentration with n% toxicity to the cells. Blank or dashed fields: not listed here. Neighbouring rows are from separate reports.

smiles | method | result
Nc1cn(C=C2C[C@H]2CO)c(=O)[nH]c1=O |  | >259 µM
OC[C@H]1O[C@@H](n2c(Br)nc3cc(Cl)c(Cl)cc32)[C@H](O)[C@@H]1O |  | >125 µM
CCCCCCCC/C=C\CCCCCCCOCCOP1(=O)CO[C@@H](Cn2ccc(N)nc2=O)CO1 |  | >0.8 µM
Nc1nc(NC2CC2)c2ncn(C=C3CC3CO)c2n1 |  | 27.9 µM
COC(=O)C(Cc1c[nH]c2ccccc12)NP(=O)(O)OCC1C/C1=C/n1cnc2c(N)ncnc21 |  | 57 µM
COC(=O)[C@H](C)NP(=O)(OC[C@H]1C/C1=C/n1cnc2c(=O)[nH]c(N)nc21)Oc1ccccc1 |  | >103 µM
COC(=O)C(C)NP(=O)(OC[C@@H]1C/C1=C/n1cc(C)c(=O)[nH]c1=O)Oc1ccccc1 |  | >100 µM
Nc1nc(OCC2CC2)c2ncn(/C=C3/C[C@@H]3CO)c2n1 |  | 148 µM
Nc1nc(Cl)c2ncn(/C=C3/C[C@H]3CO)c2n1 |  | >191 µM
CCCCCCCC/C=C\CCCCCCCOCCCOP(=O)(O)CO[C@H](CO)Cn1ccc(N)nc1=O |  | >1 µM
COC(=O)[C@H](C)NP(=O)(OC[C@H]1C/C1=C/n1cnc2c(OC)nc(N)nc21)Oc1ccccc1 |  | 3.7 µM
Nc1nc2c(ncn2C/C=C2/CC2P(=O)(O)O)c(=O)[nH]1 |  | >300 µM
Nc1ncnc2c1ncn2/C=C1/CC1(CO)CO |  | 81 µM
COC(=O)[C@H](C)NP(=O)(OCC1C/C1=C/n1cnc2c(N)ncnc21)Oc1ccccc1 |  | >108 µM
Nc1nc(Cl)c2ncn(C=C3C[C@H]3CO)c2n1 |  | >199 µM
CCCCCCCCCCCCCCCCOP(=O)(O)CO[C@H](CO)Cn1ccc(N)nc1=O |  | >1 µM
Nc1ccn(C=C2CC2(F)CO)c(=O)n1 |  | >237 µM
CCCCCCCC/C=C\CCCCCCCCOCCOP(=O)(O)CO[C@H](CO)Cn1ccc(N)nc1=O |  | >1 µM
Cn1cc(C(=O)NCc2ccc(Cl)cc2)c(=O)c2c1SC(CN1CCOCC1)C2 | MTS | >116 µM
Nc1nc2c(ncn2/C=C2/CC2(CO)CO)c(=O)[nH]1 |  | 106 µM
Cn1cc(C(=O)NCc2ccc(Cl)cc2)c(=O)c2cc(CN3CCOCC3)ccc21 | MTS | >117 µM
COC(=O)[C@H](C)NP(=O)(OC[C@H]1C/C1=C/n1cnc2c(N)nc(N)nc21)Oc1ccccc1 |  | 26.4 µM
CC(C)Nc1nc2cc(Cl)c(Cl)cc2n1[C@H]1O[C@@H](CO)[C@H](O)[C@@H]1O |  | >77 µM
Nc1cn(/C=C2/C[C@H]2CO)c(=O)[nH]c1=O |  | >259 µM
Nc1nc(N)c2ncn(/C=C3\CC3(CO)CO)c2n1 |  | >191 µM

The first 2 rows once more:

Nc1cn(C=C2C[C@H]2CO)c(=O)[nH]c1=O ; result: >259 µM
OC[C@H]1O[C@@H](n2c(Br)nc3cc(Cl)c(Cl)cc32)[C@H](O)[C@@H]1O ; result: >125 µM